Experimental data taken from patent publication US20240083981A1, “TREATMENT OF HERPES SIMPLEX VIRUS INFECTION” (priority 2022, published 2024).

Tests used:
[1] = biological target: glycoprotein D (gD) of herpes simplex virus-1 (HSV-1), on infectious virus (herpes simplex virus-1 (HSV-1)) (UniProt Q69091); experiment: cell-based or functional assay
[2] = biological target: glycoprotein D (gD) of herpes simplex virus-2 (HSV-2), on infectious virus (herpes simplex virus-2 (HSV-2)) (UniProt P03172); experiment: cell-based or functional assay

## UB-621 (anti-HSV-gD mAb) (antibody)
[1]
  IC50, plaque assay, HSV-1 RE TKnull in Vero cells: 11.3 nM
[2]
  IC50, plaque assay, HSV-2 333 TKnull in Vero cells: 28.1 nM
